Experimental data published in patent publication US20250382354A1 (INSTITUTE FOR RESEARCH IN BIOMEDICINE IRB, published 2025).
Residue numbers refer to the chain shown, from its start.

B1: sd1.127 (antibody, V domains shown)
VH: EVQLVESGGALVKPGGSLTLSCVASGFTFSHAWMTWVRQAPGKGLEWVGRIKTKTEGGTIDYAAPLRGRFTISRDDSKNTLYLRMNSLKIEDTAKYYCTTHSSPDYWGQGTLVTVSS
VL: DIQMTQSPSSLSASIGDRVTITCRASQGIGNSLLWYQQKRGKVPKLLIYAASTLQSGVPSRFSGSGSGTDFTLTISSLQPEDVATYYCQRYNSAPLTFGGGTKVEIK
B2: sd1.034 (antibody, V domains shown)
VH: EVQLVESGGGVVQPGRSLRLSCAASGFSFSNYGMHWVRQAPGKGLEWVAVISYDGSHKSFADSVKGRFTISRDNSKNTLNLQMNSLRREDTAVYYCATDQGGSLGYWGQGTLVTVSS
VL: QSALTQPASVSGSPGQSITISCTGTSGDVGGYNYVSWYQHHPGKAPKLMIYDVSNRPSGVSNRFSGSKSGNTASLTISGLQAEDEADYYCSSYTSTSTSWVFGGGTKLTVL
B3: sd1.150 (antibody, V domains shown)
V domain 1: EVQLVESGGGVVQPGRSLRLSCAASGFTFSSHGMHWVRQAPGRGLEWVAVISFDGRNKFYVDSVKGRFTISRDNSKNTLYLHMNSLRAADTAVYYCAKDHDPDGSGSYFSNWFDAWGQGTLVTVSS
V domain 2: SYELTQPPSVSVSPGQTASITCSGDKLGDKYAYWYRQKPGQSPVVVIYQDNKRPSGIPERFSGSNSGNTATLTISGTQAMDEADYYCQAWDTYSGVFGTGTQVTVL
B4: sd1.039 (antibody, V domains shown)
VH: EVQLVQSGAEVKKPGESLKISCKASGYSFPTYWIGWVRQMPGKGLEWMGIIYPGDSDTRYSPSFQGQVTISADKSISTAYLQWSSLKASDTAIYYCARYGDSHIDSWGQGTLVTVSS
VL: QSVLTQPRSASASLGASVTLNCTLSSGYSKYKVEWYQQRPGKGPRFLMRVGAGGIVGSKGDGIPDRFSVLGSGLNRYLIIKNIQQEDESDYHCGADHGSGSNFAYVVFGGGTKLTVL
B5: rbd.106 (antibody, V domains shown)
VH: EVQLVQSGAEVKKPGESLKISCKGSGYSFYNHWIAWVRQMPGKGLEWMGIIYPYDSDTRYSPSFQGQVTISADKSITTAYLQWSSLKASDTAIYYCARRSDYGEFGGHSDYWGQGTLVTVSS
VL: QSVLTQPPSASGTPGQRVSISCSGSSSNIGSNSVNWYQQFPGTAPKLLMFSSYQRPSGVPDRFSGSKSGTSASLAISGLQSEDEADYYCAAWDDSLNGVVFGGGTKLTVL
B6: rbd.046 (antibody, V domains shown)
VH: EVQLVESGGGVVQPGRSLRLSCAASGFTFSHYGMHWVRQAPGKGLEWVAVISYDGSNKYYADSVKGRFTISRDNSKSTLYLQMNSLRAEDTAVYYCAKGEWYYDIFTGYYPYWGQGTLVTVSS
VL: not shown
B7: sd1.100 (antibody, V domains shown)
VH: QVQLQESGPGLVKPSQTLSLTCSVSGDSITSGNYYWSWIRQHPGKGLEWIGNIFHTGNTYYNPSLKSRVTISIDTSKNQFSLKLSSVTAADTALYYCARDHKRLEGDWFDPWGQGSLVTVSS
VL: QSVLTQPPSASGTPGQRVTISCSGSSSNIGSNTVNWYLQLPGTAPKLLIYSNNLRPSGVPDRFSGSKSGTSASLAISGLQSGDEADYFCAAFDDSLSGPVFGGGTKLTVL
B8: sd1.033 (antibody, V domains shown)
VH: QVQLVQSGAEVKKPGSSVKVSCKASGGVYSTYAVSWVRQAPGQGLEWIGGIIPMFGTANYAQNFQGRVTITADESTRTAYMEVSSLRSEDTAVYYCASPSAPTYYYDSSRYYSFDYWGQGTLVTVSS
VL: EIVLTQSPGTLSLSPGERATLSCRASQSVSSNFLAWFQQKPGQPPRLLIYGASSRATGIPDRFSGSGSGTDFTLTISRLVPEDFAVYFCQQYGSSRYSFGQGTKLEIK
B9: sd1.103 (antibody, V domains shown)
VH: QVQLVQSGAEVKKPGSSMKVSCKASGGTLNNYAIIWVRQAPGQGLEWMGGIIPMFGAANYAQNFQGRVTITADESTRTAYLELSSLRSEDTAMYYCARVVIPYLGAHYYHYGVDVWGQGTTVTVSS
VL: B8 VL with S30T, F33Y, F37Y, P44A, T57A, S64N, V80E, F88Y, S98T
B10: sd1.040 (antibody, V domains shown)
VH: QVQLVQSGAEVKKPGASVKVSCKASGYTFTSFYIHWVRQAPGQGLEWMGIIDPSGGSTSYPQKFQGRVTMTRDTSTSTVYMDLSSLRSEDTAVYYCTRDGSAGDNSWFDPWGQGTLVTVSS
VL: DIVMTQSPDSLAVSLGERATINCKSSRNVLYSSNNKNYLAWYQQKPGQPPKLLIYWASARESGVPDRFSGSGSGTDFTLTISSLQAEDVAVYYCQQYYNTPYTFGQGTKLEIK
B11: sd1.108 (antibody, V domains shown)
VH: QVQLVQSGAEVKKPGASVKVSCKASGYTFTSYYIHWVRQTPGQGLEWMGIINPRGGSTSYPQKFQGRVSMTRDTSTSTVFMELSSLRSDDTAVYYCAREHREDTAMDNQPSDSWGQGTLVTVSS
VL: B10 VL with A12S, N28S, L30F, N37S, A59T, P65R
B12: sd1.151 (antibody, V domains shown)
VH: EVQLVESGGGLVKPGGSLRLSCAVSGFTFSNAWMTWVRQAPGKGLEWVGRIKTKPEGGTTDYATPVKGRFTISRDDSIDTLYLQMNSLKTEDTAVYYCSTFSSPDHWGQGTLVTVSS
VL: DIVMTQSPDSLAVSLGERATINCKSSQSVFHSSNNKNYLIWYQHKPGQPPKLLISWASTRESGVPDRFSGSGSGTDFTLTISSLQAEDVAVYYCHQYYSTPFTFGPGTKVDIK
B13: sd1.129 (antibody, V domains shown)
VH: QVQLVQSGAEVKRPGSSVKVSCKASGGAFSNYAISWVRQAPGQGLEWMGGIIPIFGTTNYAQRFQGRVTISADESTGTAYMELSSLRFADTAIYYCARADAYSGSYYPSANWFDPWGQGTLVTVSS
VL: EIVLTQSPATLSLSPGERATLSCRASQSVSNYLAWYQQKPGQAPRLLIYDASNRATGIPARFSGSGSGTDFTLTISSLEPEDFAVYYCQQRQNWPPGWTFGQGTKVEIK
B14: rbd.031 (antibody, V domains shown)
VH: EVQLVESGGGVVQPGRSLRLSCAASGFTFKTYGMHWVRQAPGKGLEWVAVISYEGSNEYYAESVKGRFTISRDNSKNTLYLHMNSLRAEDTAVYYCAKGEYYYHSSTYYYLDYWGRGTLVTVSS
VL: DIQMTQSPSTLSASVGDRVTITCRASQSISSWLAWYQQKPGKAPKVLIYDASSLQSGVPLRFSGSGSGTEFTLTISSLQPDDFATYYCQQYDTYWTFGQGTKVEIK
B15: rbd.141 (antibody, V domains shown)
VH: EVQLVESGGGVVQPGRSLRLSCAASGFTFSSYGMHWVRQAPGKGLEWVAVISYDGKIKYYADSVEGRFTISRDNSKNALYLQMNSLRAEDTAVYYCAKYGIVTSFGVVPPYDMDVWGQGTTVTVSS
VL: DVVMTQSPLSLPVTLGQPASISCRSSQSLVYSDGNTFLNWFQQRPGQSPRRLIYKVSDRDSGVPDRFSGSGSGTDFTLKISRVEAEDVGVYYCMQGTNWPPTFGQGTKVEIK
B16: rbd.045 (antibody, V domains shown)
VH: QVQLQESGPGLVKPSETLSLTCTVSGGAFRSFFWTWIRQPPGKGLEWIGNIYYSGSTNYNPSLKSRVTISQDMSENQFSLKLSSVTAADTAVYYCARSQWLRGNFDHWGQGILVTVSS
VL: NFMLTQPHSVSESPGKTVTISCTATSGYIASNYVQWYQQRPGSAPTTVIYEDNQRPSGVPDRFSGSIDSSSNSASLTISGLKPEDEADYYCQSFDTAYAVFGGGTQLTVL
B17: sd1.102 (antibody, V domains shown)
VH: QVQLVQSGAEVKKPGSSVKVSCKASGGTFSSYAISWVRQAPGQGLEWMGGIIPLYGTANYAQKFQGRVTITADESTSTTYMELSSLTSEDTAVYYCVRFRGGDYYYYYGMDVWGQGTTVTVSS
VL: EIVMTQSPATLSVSPGESATLSCRASQTVSTNLAWYQQKPGQAPRLLIFGASTRATGIPARFSGSGSGTEFTLSISSLQSEDFAVYYCHQYNSRRTFGQGTKLEIK
B18: rbd.038 (antibody, V domains shown)
VH: QVQLVQSGAEVKKPGASVKVSCKASGYTFSGYYMHWVRQAPGQGLEWVGWISPTSGGTKYAQKFQGRVTMTRDTSITTVYMELNRLRSDDTAVYYCAREPFPYCTSDICHSNYFYYYAMDVWGQGTTVTVSS
VL: QSALTQPPSASGSPGQSVTISCTGSSSDLGDHNYVSWYQQHPGKAPKVMIYEVSKRPSGVPDRFSGSKSGNTASLTVSGLQAEDEADYYCSSYAGSLYVFGTGTKVTVL
B19: rbd.035 (antibody, V domains shown)
VH: EVQLLESGGGLIEPGGSLRLSCAASGFPFNTFAMTWVRQPPGKGLEWVATISSRGDYTFYADFVKGRFSISRDNANNALWLDMSGLRAEDTALYYCAKGESGYDLYLYGLDLWGQGTTVTVSS
VL: DIQMTQSPSSLSASVGDGVTITCRASQNINNYLSWYQKKAGKAPKLLIYGASTLHSGVPSRFSGSGSGTDFTLTISSLQPEDFASYYCQQNSPTPPWTFGQGTKVEIK
B20: sd1.132 (antibody, V domains shown)
VH: QVQLVQSGTEVKKPGSSVKVSCKASGGTFSSYAISWVRQAPGQGLEWMGGIIPMFGAPNYAQKVQGRVTITADESTSTAYMELSSLRSEDTAVYYCARMEYSNSPGRGGYYFYSNGMDVWGQGTTVTVSS
VL: EIVLTQSPATLSLSPGERATLSCRASQSVSTYLAWLQQKPGQAPRLLMYDASNRASGIPARFSGSGSGTEFTLTISSLEPEDFAVYYCQQRTYWPLTFGGGTKVEIK

What follows are binders tested against T1, SARS-CoV-2 SD1-RBD Omicron BA.1 (SARS-CoV-2 Omicron BA.1) (assay: protein ELISA).
T1 construct: domain: SD1-RBD

Row | Binder | EC50 [µg/mL]
1 | B1 | 0.0112
2 | B2 | 0.0225
3 | B3 | 1.24
4 | B4 | 0.0245
5 | B5 | 0.0282
6 | B6 | 0.314
7 | B7 | 0.15
8 | B8 | 0.654
9 | B9 | 8.28
10 | B10 | 0.021
11 | B11 | 0.0258
12 | B12 | 0.0258
13 | B13 | 2
14 | B14 | 0.0252

The binders below were run against T2, SARS-CoV-2 SD1-RBD Omicron BA.2.75 (SARS-CoV-2 Omicron BA.2.75) (assay: protein ELISA).
T2 construct: domain: SD1-RBD

Row | Binder | EC50 [µg/mL]
15 | B1 | 0.0195
16 | B2 | 0.0359
17 | B3 | 0.256
18 | B15 | 0.0153
19 | B16 | 0.22
20 | B17 | 2.93
21 | B4 | 0.0464
22 | B5 | 0.0541
23 | B6 | 0.0661
24 | B7 | 0.187
25 | B9 | 1.65
26 | B10 | 0.0487
27 | B11 | 0.0459
28 | B12 | 0.0663
29 | B18 | 0.124
30 | B13 | 5.1
31 | B14 | 0.0486

Each binder was assayed against T3, SARS-CoV-2 SD1-RBD Omicron BA.4/BA.5 (SARS-CoV-2 Omicron BA.4/BA.5) (assay: protein ELISA).
T3 construct: domain: SD1-RBD

Row | Binder | EC50 [µg/mL]
32 | B1 | 0.00741
33 | B2 | 0.0359
34 | B3 | 0.732
35 | B15 | 0.0197
36 | B16 | 0.065
37 | B17 | 4.91
38 | B4 | 0.0431
39 | B5 | 0.0308
40 | B6 | 0.0874
41 | B19 | 0.0461
42 | B20 | 3.75
43 | B7 | 0.134
44 | B8 | 0.32
45 | B9 | 2.83
46 | B10 | 0.0384
47 | B11 | 0.0173
48 | B12 | 0.0183
49 | B18 | 0.154
50 | B13 | 2.79
51 | B14 | 0.0309
